The subject of the assay is Vif-dependent degradation of A3G. Format: cell-based. Conditions: YFP-A3G assay, 293T cells.

As for `COC(=O)c1ccc(O)c2nc3c(C=O)c(O)cc(O)c3nc12` [lomofungin], the “effect on Vif-dependent degradation of A3G” value is given as “little effect”. Consider `COc1cc(-c2ccc(Nc3ccccc3C(=O)O)c(OC)c2)ccc1Nc1ccccc1C(=O)O` [redoxal], for which the “effect on Vif-dependent degradation of A3G” value is “little effect”.

The record behind these values is PMC4567410 (Virology, 2015).
